Compound potency records, mixed from different reports. Data source: NIAID ChemDB in PubChem.

Shared fields: tests in culture; agent: Herpes simplex virus 1; read by: plaque count; measure: inhibition

Blank or dashed fields: not listed here. Rows are shuffled and stem from different studies. Inhibition is in % at the dose shown (toxicity tests: loss of growth or viability). For "inactive" no cut-off is given.

compound | dose | cells | strain or isolate | result
CC/C=C/C/C=C/C/C=C/CCCCCCCC(=O)OCC(CO[C@@H]1O[C@H](CO)[C@@H](O)[C@H](O)[C@H]1O)OC(=O)CCCCCCC/C=C/C/C=C/C/C=C/CC | 50 µg/mL | VERO | KOS | 94%
O=S(=O)(c1ccc(OCc2ccc(Br)cc2)cc1)c1ccc(OCc2ccc(Br)cc2)cc1 | 30 µM | VERO |  | >50%
CN1C(=O)NC(=O)N([C@H]2C[C@H](O)[C@@H](CO)O2)C1(C)C | 25 µM | VERO | 42D | 52%
CC(=O)N[C@@H](CC(C)C)C(=O)N[C@@H](CC(C)C)C(=O)N[C@H](C=O)CCCN=C(N)N | 20 µM | CV-1 | Fukuda | 38%
CCCCn1cnc(=N)c2[nH]cnc21 | 50 µg/mL | BSC-1 |  | 0%
Nc1nc2c(ncn2COC(CO)CO)c(=O)[nH]1 | 1.5 µM | WI-38 | KOS mutant PFA-R5 | 90%
N=c1ncn(Cc2ccco2)c2nc[nH]c12 | 50 µg/mL | BSC-1 |  | 0%
Cc1ccc(NS(=O)(=O)c2cccc(S(=O)(=O)Nc3ccc(C)cc3)c2)cc1 | 5 µM | VERO |  | <50%
Cc1ccc(Cn2cnc(=N)c3[nH]cnc32)cc1 | 6 µg/mL | BSC-1 |  | 0%
COc1ccc(NC(=S)Nc2ccc(Cl)cc2)cc1NC(=S)Nc1ccc(Cl)cc1 | 30 µM | VERO |  | <50%
C#C[C@H]1O[C@@H](n2cc(C)c(=O)[nH]c2=O)C[C@@H]1O | 100 µM | HELA BU | KOS | 1%
S=C(NCCc1ccccc1)Nc1ccc(Oc2ccc(NC(=S)NCCc3ccccc3)cc2)cc1 | 5 µM | VERO |  | <50%
N=c1ncn(Cc2cccc([N+](=O)[O-])c2)c2nc[nH]c12 | 50 µg/mL | BSC-1 |  | 0%
NC(=Nc1ccc(Cc2ccc(N=C(N)c3ccccc3)cc2)cc1)c1ccccc1 | 30 µM | VERO |  | >90%
CCCn1cnc(=N)c2[nH]cnc21 | 25 µg/mL | BSC-1 |  | 0%
O=S(=O)(c1ccc(O)cc1)c1ccc(OCc2ccc(Cl)cc2)cc1 | 5 µM | VERO |  | 0%
CCCCCCCC/C=C\CCCCCCCC(=O)OC(COC(=O)CCCCCCCCCCC)CO[C@@H]1O[C@H](CO)[C@@H](O)[C@H](O)[C@H]1O | 50 µg/mL | VERO | KOS | 13%
O=C(O)CP(=O)(O)O | 200 µg/mL | BSC-1 |  | 40%
Nc1nc(=S)c2[nH]c(-c3cscn3)nc2[nH]1 | 100 µg/mL | VERO |  | 32%
CC/C=C/C/C=C/C/C=C/CCCCCCCC(=O)OCC(CO[C@@H]1O[C@H](CO)[C@H](O)[C@H](O)[C@H]1O)OC(=O)CCCCCCC/C=C\C/C=C\CCCCC | 50 µg/mL | VERO | KOS | 100%
C/C=C/c1cn([C@H]2C[C@H](O)[C@@H](CO)O2)c(=O)[nH]c1=O | 1 µM | VERO | C42PFA-R | 91%
CC(C)[C@H](NC(=O)[C@H](CCCN=C(N)N)NC(=O)N[C@@H](Cc1ccccc1)C(=O)O)C(=O)N[C@H](C=O)CCCN=C(N)N | 20 µM | CV-1 | Fukuda | 38%
CCCCCCCCCCCCCCCCCCCCCC(=O)OCC(CO[C@@H]1O[C@H](CO)[C@@H](O)[C@H](O)[C@H]1O)OC(=O)CCCCCCCCCCCCCCCCCCCCC | 50 µg/mL | VERO | KOS | inactive
COc1cccc(NS(=O)(=O)c2ccc(Oc3ccc(S(=O)(=O)Nc4cccc(OC)c4)cc3)cc2)c1 | 30 µM | VERO |  | >90%
CSc1cnc(=O)n([C@H]2C[C@H](O)[C@@H](CO)O2)c1 | 100 µM | HeLa | KOS | 57%
CSC(=NCCc1ccccc1)Nc1ccc(Oc2ccc(/C=C(/NCCc3ccccc3)SC)cc2)cc1 | 5 µM | VERO |  | >50%
CCCCCCCCCCCCCCCCCC(=O)OCC(CO[C@@H]1O[C@H](CO)[C@@H](O)[C@H](O)[C@H]1O)OC(=O)CCCCCCCCCCC | 50 µg/mL | VERO | KOS | inactive

Repeating the final 3 entries:

compound	dose	cells	strain or isolate	result
CSc1cnc(=O)n([C@H]2C[C@H](O)[C@@H](CO)O2)c1	100 µM	HeLa	KOS	57%
CSC(=NCCc1ccccc1)Nc1ccc(Oc2ccc(/C=C(/NCCc3ccccc3)SC)cc2)cc1	5 µM	VERO		>50%
CCCCCCCCCCCCCCCCCC(=O)OCC(CO[C@@H]1O[C@H](CO)[C@@H](O)[C@H](O)[C@H]1O)OC(=O)CCCCCCCCCCC	50 µg/mL	VERO	KOS	inactive